PubChem BioAssay AID504761 | Drosophila RNAi Screening Center, 2011
The screen tested about 22,000 reagents; shown is a random part of those that have a named target and a result. Of all reagents, 116 (0.52%) were called active. 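Calls depend on retest data that are not deposited; infection was ranked per plate without normalising between plates; the unit of the infection score is not given.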 Raw values are not corrected between plates. Unmarked entries are inactive. The record does not give: the amount of reagent, the time to read-out.

Aim: 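Fly genes whose silencing reduces dengue virus type 2 infection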 (primary screen)
System: D.Mel-2 cells from Drosophila
Knock-down reagent: long dsRNA against Drosophila genes
Conditions: infection with dengue virus type 2; dose and infection time not stated
Read-out: 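Cells stained for dengue envelope protein and imaged; percent of infected cells per well on duplicate plates, ranked by infection, with stained nuclei counted for cell number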
Direction: infection score: higher = more virus-infected cells; cell count: higher = more cells in the well
Rule for the call: 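Very low infection ranking in both replicate wells (chance probability at most 0.065), then a retest showing infection dropped 1.5-fold or more at p below 0.05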
Meaning of the calls: active = confirmed: knock-down lowers infection; inactive = not picked or not confirmed

Target gene	amplicon	infection score, replicate 1	infection score, replicate 2	cell count, replicate 1	cell count, replicate 2
Cp19	DRSC11121	6.61	2.63	6351	6724
Cp19	DRSC28639	12.1		1511	383
Spag1	DRSC15331	3.85	11.8	6312	5441
l(2)k09022	DRSC02108	9.9	29.7	4827	4565
sphinx1	DRSC10993	3.08	2.93	6536	6146
sphinx1	DRSC24818	3.87	3.3	6053	6144
Ten-a	DRSC18924	1.74	4.28	6027	5959
Ten-a	DRSC19700	6.65	8.73	6471	6723
Ten-a	DRSC19793	17.6	27.2	4941	5903
Ten-a	DRSC19864	24.1	21.6	2876	5614
Ten-a	DRSC19865	16.9	13.3	6134	6132
Ten-a	DRSC20290	7.18	11.7	6981	7161
Ten-a	DRSC21461	0.84	1.55	6412	6923
Ten-a	DRSC23016	2.65	6.21	5933	5846
Ten-a	DRSC29598		0.27	298	375
Src64B	DRSC08700	1.81	1.98	6202	6011
CG18558	DRSC21593	33.3	11.2	6402	6790
chb	DRSC11469	3.36	5.82	2681	3299
Der-1	DRSC00301	1.19	8.18	5949	6531
dock	DRSC00812	1.58	1.04	6009	5949
dock	DRSC27610	5.04	3.01	6819	6576
vanin-like	DRSC17440	0.02 (active)	0.08	6536	6620
COX7B	DRSC10895	1.86	6.88	6506	5796
CG2852	DRSC04321	27.1	13.9	5804	5071
CG2852	DRSC27956	5.44	3.05	6378	6104
CtsL2	DRSC06978	21.9	21.1	5480	5773
sens-2	DRSC02613	3.21	7.68	6289	5846
sens-2	DRSC25026	4.87	6.68	5940	5662
Targ1	DRSC11616	9.25	6.63	6204	6158
Shmt	DRSC18264	3.41	7.09	5980	6459
kumpel	DRSC14883	1.33	5.69	6688	6958
kumpel	DRSC16459	6.77	3.09	6764	7044
kumpel	DRSC16460	3.86	9.31	6994	6770
kumpel	DRSC16461	9.01	5.42	6412	6881
kumpel	DRSC16462	4.78	8.33	6755	6329
kumpel	DRSC16463	9.68	2.07	6611	917
kumpel	DRSC25593	6.24	2.37	6587	6671
kumpel	DRSC27664	17.8	13.3	5764	3735
CG4704	DRSC15628	4.27	3.62	6463	6241

Records listed so far whose target name begins with S or s:
Target gene	amplicon	infection score, replicate 1	infection score, replicate 2	cell count, replicate 1	cell count, replicate 2
Spag1	DRSC15331	3.85	11.8	6312	5441
sphinx1	DRSC10993	3.08	2.93	6536	6146
sphinx1	DRSC24818	3.87	3.3	6053	6144
Src64B	DRSC08700	1.81	1.98	6202	6011
sens-2	DRSC02613	3.21	7.68	6289	5846
sens-2	DRSC25026	4.87	6.68	5940	5662
Shmt	DRSC18264	3.41	7.09	5980	6459

The results go on.
Target gene	amplicon	infection score, replicate 1	infection score, replicate 2	cell count, replicate 1	cell count, replicate 2
kipf	DRSC15446	10.1	12.3	5744	5394
kipf	DRSC22871	3.04	3.12	5895	6897
kipf	DRSC29690	45.2	25.2	4164	5387
CG7706	DRSC16295	2.84	2.83	6453	6456
CG7706	DRSC26375	8.28	15.3	5842	5003
Droj2	DRSC16450	7.4	29.4	4082	4076
Droj2	DRSC28863	9.3		979	397
X11L	DRSC19958	6.11	14.9	6172	5913
X11L	DRSC19959	7.81	8.46	6645	5981
X11L	DRSC25616	1.17	7.79	6407	5761
Rnb	DRSC16325	2.51	1.91	5726	5981
Rnb	DRSC28764			274	401
ppk27	DRSC08168	0.89	11.5	6609	5913
ppk27	DRSC22211	5.16	19	7041	5588
Trmt61	DRSC14888	6.04	0.76	3593	6686
Or1a	DRSC18689	5.06	1.78	6229	6974
Snmp2	DRSC10228	2.9	6.94	6278	5981
Snmp2	DRSC10843	6.27	2.57	6634	6111
Send2	DRSC01906		24	628	6042
ena	DRSC05779	0.06	0.19	6442	6204
ena	DRSC07610	2.44	7.05	6918	6705
ena	DRSC25393	0.91	2.29	5712	5885
Tmem63	DRSC06063	2.29	9.84	6363	6179
Tmem63	DRSC27402	2.19	8.96	6564	6398
MtnB	DRSC22744	10.5	24.1	6365	3981
MtnB	DRSC29147	2.26	14.6	972	5428
yellow-d2	DRSC04591	2.99	1.96	6530	6382
CR31032	DRSC22457	3.45	6.72	6371	6023
CR31032	DRSC25512	7.67	2.95	5982	6101
eIF2Bgamma	DRSC07100	46.3	30.2	4752	5779
eIF2Bgamma	DRSC29765	27.2	17.9	5536	5883
CG4213	DRSC00641	32.9	14.8	5650	6670
CG1598	DRSC06598	8.89	0.56	7066	540
cos	DRSC07598	16.7	7.81	6189	6488
cos	DRSC28447	12.4	11.1	5703	4574
